Results deposited as PubChem BioAssay AID624099 (ICCB-Longwood, 2012)
Here is one part, drawn at random, of about 21,000 reagents. In the full data, 497 (2.4%) are marked active. 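Higher z means weaker E2 silencing; only reporter increases were scored, and knock-downs that hurt cell survival may mask genuine repressor factors.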 Unmarked entries are inactive.

Screen: 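Knock-downs relieving repression by E2 of an HPV18 LCR luciferase reporter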 (primary screen)
Cell system: human C33A cervical carcinoma cells (HPV-negative) stably expressing BPV1 E2 and an HPV18 LCR luciferase reporter
Reagent: siRNA pool against human genes, 40 nM
Duration: 72 h
Detection: 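Per-well luciferase luminescence, z-scored on each plate against the plate mean and SD with control wells left out, then averaged across three replicate plates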
Scale: mean z-score and z-score: higher = stronger reporter signal, weaker E2 silencing
Rule for the call: 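Mean z ≥ 2 together with z ≥ 2 in two or more of the three replicates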

| Target gene | mean z-score | z-score, replicate A | z-score, replicate B | z-score, replicate C |
| --- | --- | --- | --- | --- |
| RHOXF2 | -0.09 | -0.17 | 0.26 | -0.36 |
| ANKRD60 | -0.29 | -0.32 | -0.36 | -0.18 |
| CD58 | 1.76 | 1.78 | 1.78 | 1.73 |
| PPP1R7 | -0.61 | -0.6 | -0.69 | -0.54 |
| CLIC1 | 0.76 | 0.69 | 0.52 | 1.06 |
| F2RL1 | -1.03 | -0.66 | -0.97 | -1.48 |
| ACTL7B | -0.3 | -0.38 | -0.34 | -0.17 |
| SPDYA | -0.26 | -0.33 | 0 | -0.47 |
| AADACL4 | 1.16 | 1.16 | 0.83 | 1.49 |
| SERTAD3 | -1.32 | -1.42 | -0.99 | -1.54 |
| NR2C1 | -0.55 | -0.59 | -0.53 | -0.53 |
| DHX36 | -2.6 | -2.75 | -2.68 | -2.36 |
| NUDT5 | 0.31 | 0.49 | 0.13 | 0.32 |
| NR2F2 | 0.65 | 0.82 | 0.48 | 0.65 |
| ACTL8 | 0.58 | 1.16 | 0.54 | 0.04 |
| LOC400340 (retired record) | -0.14 | -0.27 | -0.74 | 0.58 |
| ATP5MC1 | 0.88 | 1.08 | 0.84 | 0.73 |
| FLT3LG | 1.05 | 0.97 | 1.08 | 1.12 |
| AKAP1 | 0.49 | 0.44 | 0.47 | 0.58 |
| GIPC1 | 0.13 | -0.1 | 0.36 | 0.12 |
| GJB2 | -0.83 | -0.92 | -0.71 | -0.84 |
| AFAP1-AS1 | -0.81 | -0.54 | -1.02 | -0.86 |
| SNCG | 0.4 | 0.55 | 0.25 | 0.4 |
| NUMBL | -0.2 | -0.06 | -0.2 | -0.33 |
| SLC38A4 | 0.7 | 0.41 | 0.8 | 0.88 |
| LOC387937 (retired record) | 0.68 | 0.58 | 0.68 | 0.77 |
| RBFOX1 | 1.26 | 1.44 | 1.19 | 1.14 |
| NFYA | 0.85 | 0.71 | 0.78 | 1.06 |
| SEC63 | 1.33 | 1.81 | 1.21 | 0.96 |
| TTC39C | -0.02 | 0.11 | -0.25 | 0.09 |
| LOC389162 (retired record) | 0.88 | 1.03 | 0.9 | 0.7 |
| IFI30 | -0.22 | 0.42 | -0.41 | -0.67 |
| CITED1 | -0.09 | -0.38 | -0.05 | 0.14 |
| TAF12 | -0.49 | -0.62 | -0.25 | -0.59 |
| RTN3P1 | 0.37 | 0.29 | 0.36 | 0.47 |
| PHACTR1 | -1.68 | -1.75 | -1.67 | -1.63 |
| CTDSP2 | -0.91 | -0.83 | -0.76 | -1.14 |
| MEDAG | 0.81 | 0.56 | 0.76 | 1.11 |
| TNKS | -0.08 | -0.1 | -0.08 | -0.06 |
| SPON1 | -0.85 | -0.92 | -0.81 | -0.81 |
| SH3RF1 | 0.61 | 0.39 | 0.48 | 0.96 |
| PAG1 | 1.31 | 1.14 | 1.41 | 1.38 |
| DLX5 | 1.59 | 1.58 | 1.62 | 1.58 |
| MIGA1 | 1.23 | 1.16 | 1.3 | 1.22 |
| MRM1 | -0.31 | -0.74 | 0.15 | -0.34 |
| CCDC158 | -0.45 | -0.6 | -0.57 | -0.18 |
| SIRT5 | -1.91 | -1.6 | -2.28 | -1.85 |
| FAM131A | -0.27 | -0.36 | -0.4 | -0.07 |
| SLC38A3 | 0.26 | 0.49 | 0 | 0.29 |
| TAS2R38 | 0.14 | 0 | 0.13 | 0.29 |
| RABAC1 | 0.19 | 0.1 | 0.24 | 0.24 |
| PTGES3 | -0.54 | -0.46 | -0.55 | -0.6 |
| ANKRD20A19P | 1.52 | 1.11 | 1.91 | 1.55 |
| ALDH16A1 | 0.25 | – | 0.29 | 0.21 |
| LOC392546 (retired record) | 1.01 | 0.6 | 1.18 | 1.26 |
| KLHL40 | -1.46 | -1.21 | -1.52 | -1.64 |
| BCL11A | -0.31 | -0.14 | -0.37 | -0.43 |
| ABI2 | 0.08 | -0.2 | 0.07 | 0.38 |
| LDB1 | -1.48 | -1.36 | -1.46 | -1.61 |
| CA7 | -0.92 | -0.85 | -1.17 | -0.75 |
| LOC388914 (retired record) | -0.26 | -0.13 | -0.3 | -0.35 |
| IGFBP4 | -0.68 | -0.27 | -0.77 | -1.01 |
| MYO18B | 1.06 | 1.18 | 0.89 | 1.1 |
| RLN3 | 1.11 | 0.91 | 1.4 | 1.03 |
| CHN1 | 0.24 | 0.12 | 0.12 | 0.47 |
| TM9SF1 | -0.7 | -0.67 | -0.76 | -0.68 |
| IL1RAPL1 | -0.03 | 0.22 | -0.24 | -0.05 |
| VSTM5 | 0.27 | 0.32 | 0.31 | 0.17 |
| LOC401234 (retired record) | -0.16 | -0.18 | -0.35 | 0.04 |
| PLRG1 | 0.69 | 0.77 | 0.97 | 0.32 |
| PITPNB | 0.34 | 0.16 | 0.37 | 0.5 |
| NDUFB3 | -0.98 | -1.14 | -0.79 | -1.02 |
| CUX1 | -1.42 | -1.08 | -1.83 | -1.35 |

In a second layout: results already given
Target gene | mean z-score | z-score, replicate A | z-score, replicate B | z-score, replicate C
SLC38A3 | 0.26 | 0.49 | 0 | 0.29
TAS2R38 | 0.14 | 0 | 0.13 | 0.29
RABAC1 | 0.19 | 0.1 | 0.24 | 0.24
PTGES3 | -0.54 | -0.46 | -0.55 | -0.6
